Test system: Middle East respiratory syndrome-related coronavirus
Test: Potency index, ratio of HR2P-M2 EC50 to test compound EC50 for inhibition of EGFP-fused MERS-CoV spike protein mediated cell-cell fusion between viral protein expressing human 293T cells and human HuH7 target cells

`CSCC[C@H](NC(=O)[C@H](CCC(=O)O)NC(=O)[C@H](Cc1ccc(O)cc1)NC(=O)[C@@H](NC(=O)[C@H](CC(C)C)NC(=O)[C@H](CC(=O)O)NC(=O)[C@H](CC(C)C)NC(C)=O)[C@@H](C)O)C(=O)N[C@@H](CC(C)C)C(=O)N[C@@H](CO)C(=O)N[C@@H](CC(C)C)C(=O)N[C@@H](CCC(N)=O)C(=O)N[C@@]1(C)CCC/C=C\CCC[C@@](C)(C(=O)N[C@@H](CC(C)C)C(=O)N[C@@H](CC(N)=O)C(=O)N[C@@H](CCC(=O)O)C(=O)N[C@@H](CO)C(=O)N[C@@H](Cc2ccc(O)cc2)C(N)=O)NC(=O)[C@H](CCCCN)NC(=O)[C@H](C(C)C)NC(=O)[C@H](C(C)C)NC1=O` gave a Ratio EC50 of 2.8.

Reference: ChEMBL document CHEMBL4118106 (J Med Chem, 2018)
